Library screen at single concentrations

Source: ChEMBL document CHEMBL3988442, “University of Dundee, Small-Polar-MMV Screening Library” (2021).

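Phenotypic screen: M. tuberculosis growth, cholesterol and DPPC medium, 4 days; the read-out is not stated. Concentration: 500 µM. Higher reads as more growth inhibition (inferred: compounds with an IC50 in retests scored well above the rest). About 18,000 compounds were tested under these conditions; 5% (about 900) showed 50% or more at least once.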

The filed quantity is “Percent Effect” (%).
How 0% and 100% were set is not recorded. Most values in the screen are low, and negative values occur.
Many other results are left out here, so strong results are more common than in the screen.

Cn1nccc1C(=O)N1CCC(Oc2ccccc2)C1 (stereo unspecified) gave 52.32%. Result for O=C(N[C@@H]1CCOC[C@H]1O)c1ccncc1 was -5.282%. NCC(=O)Nc1cc(C(F)(F)F)c[nH]c1=O read -0.0901%. Result for CCOc1ccc(S(=O)(=O)NCCCO)cc1 was 3.48%. For CN(Cc1ccccc1)C(=O)CCN the result was 2.449%. For CC(=O)N1CCN(C2CC(N)C2)CC1 (stereo unspecified) the result was -13.52%.

Result for O=S1(=O)N=C(NCc2ccco2)c2ccccc21 was 4.978%. CS(=O)(=O)N1CCC(COCc2ccccc2)C1 (stereo unspecified) read 15.67%. CCOC(C)C(=O)Nc1ncccc1F (stereo unspecified) read -11.89%. Result for COc1ccc(C(C)N)c(C)c1OC (stereo unspecified) was -11.91%. For CN(CCC(N)=O)Cc1ccc(Br)o1 the result was 20.22%. CN(C)CCNC(=O)c1ccc(Br)o1 read -11.97%.

For COc1cccc(S(=O)(=O)CCN2CCCC2CO)c1 (stereo unspecified) the result was 65.05%. For COc1ccc(CCN)cc1F the result was 54.86%. For CCN(CC(C)C#N)C(=O)c1ccc(C)[nH]c1=O (stereo unspecified) the result was -20.83%. For COC(CN)Cc1ccccc1 (stereo unspecified) the result was -11.69%. With Cc1cc(N2CCNCC2)n[nH]1 the screen gave -16.43%. Cc1cc(C)c(S(=O)(=O)NCCO)c(C)c1 read -10.19%.

CN(Cc1ccc(N)nc1)c1ccc(C#N)cn1 read 44.92%. For CCNc1nnc(SCc2ncccc2C)s1 the result was 74.09%. Cc1cc(Br)cc2cc(C(=O)NC(C)(CO)CO)oc12 read 54.59%. O=S1(=O)CCN(c2ncc(C(F)(F)F)cc2Cl)CC1 gave -2.533%. For NCC(CO)Cc1ccc(Br)cc1 (stereo unspecified) the result was 21.61%. For COc1cccc(-n2nnc(C(=O)NC3CC3)c2C)c1 the result was 56.19%.

CCC(=O)Nc1ccc(CN2CCOCC2)c(Cl)c1 read 6.286%. Result for CSCc1ccc(C(=O)N(C)Cc2cnccn2)o1 was -2.302%. With Cc1n[nH]c(C)c1NC(=O)OC(C)(C)C the screen gave -0.277%. OC1(CNc2nc(-c3ccccc3)ns2)CCSC1 (stereo unspecified) read 92.18%. With c1nnc(SC2CCOCC2)s1 the screen gave 10.51%. C[C@@H](O)CNCc1cnn(-c2ccc(F)cc2)c1 read 20.24%.

For Cc1ccc(C(O)c2cccnc2)cc1 (stereo unspecified) the result was 37.59%. Result for CC(C)(CO)NC(=O)c1cccc(OCC(F)F)n1 was -9.038%. CN1CCC(CNC(=O)c2ccccc2F)CC1 read -1.563%. CCN(CC(N)=O)S(=O)(=O)c1ccc2ccccc2c1 gave 17.35%. With CCn1ncnc1CN1CCC(O)(CO)CC1 the screen gave -6.641%. Result for COC(=O)CCN1CCN(c2cccc(OC)c2)CC1 was -13.63%.

O=C(CCCc1ccccc1)NCc1ccccn1 gave 65.17%. With OCc1ccccc1C1CCNCC1 the screen gave 6.419%. With Cc1cc(C)cc(NC(=O)CCN2CCN(C)CC2)c1 the screen gave 7.014%.

2 of the entries, repeated:

| compound | effect |
|---|---|
| `O=S1(=O)CCN(c2ncc(C(F)(F)F)cc2Cl)CC1` | -2.533% |
| `CCn1ncnc1CN1CCC(O)(CO)CC1` | -6.641% |